Compound potency records, mixed from different reports. Data source: NIAID ChemDB in PubChem.

All rows: tests in culture; species: Punta Toro virus

An empty or dashed field is not shown. Lines come from different laboratories, so protocols vary. ECn is the concentration giving n% inhibition of infection, replication or growth.

smiles | measure | cells | read by | strain | value
N=C(N)c1ncn([C@@H]2O[C@H](CO)[C@@H](O)[C@H]2O)n1 | EC50 | LLC-MK2 |  | Adames | 8 µg/mL
Nc1ncnc2c1cnn2Cc1cn(CCCCO)nn1 | EC50 | VERO |  |  | >400 µg/mL
OC[C@H]1CC(n2cnc3c(NC4CC4)ncnc32)C[C@@H]1CO | EC50 | VERO |  |  | >100 µg/mL
CCn1nc(CC(=O)N/N=C/c2ccco2)nc1C | MIC |  |  |  | >80 µg/mL
O=c1[nH]cnc2c1ncn2C1C[C@H](CO)[C@@H](CO)C1 | EC50 | VERO |  |  | >100 µg/mL
COC(=O)[C@]1(C)CCC[C@]2(C)c3ccc4nc5c(nc4c3CCC12)CCCC5 | EC50 | VERO | plaque count |  | >4 µg/mL
CCn1nc(-c2ccc(Cn3ccc4ccccc43)cc2)nc1C | MIC |  |  |  | >80 µg/mL
CN[C@H]1C[C@@H](n2cnc3c(N)ncnc32)[C@H](O)[C@@H]1O | EC50 | HFF |  |  | >100 µg/mL
COC(=O)[C@]1(C)CCC[C@]2(C)c3cc(Br)c4nc(C)[nH]c4c3CCC12 | EC50 | VERO | plaque count |  | >4 µg/mL
CSc1ncnc2c1cnn2Cc1cnnn1CCCCO | EC50 | VERO |  |  | >400 µg/mL
COc1ccc(-n2c(Cc3nc4n(n3)CCCC4)n[nH]c2=S)cc1 | MIC |  |  |  | >400 µg/mL
COC(=O)[C@]1(C)CCC[C@]2(C)c3cc(Br)c4nc(C(F)(F)F)[nH]c4c3CCC12 | EC50 | VERO | plaque count |  | >4 µg/mL
CSc1ncnc2c1cnn2Cc1cn(CCCCO)nn1 | EC50 | VERO |  |  | >400 µg/mL
NNC(=O)Cc1nc2n(n1)CCCCC2 | MIC |  |  |  | >16 µg/mL
CC(C)Nc1ncnc2c1ncn2C1C[C@H](CO)[C@@H](CO)C1 | EC50 | VERO |  |  | >100 µg/mL
COC(=O)[C@]1(C)CCC[C@]2(C)c3ccc4[nH]c(C(F)(F)F)nc4c3CCC12 | EC50 | VERO | plaque count |  | >4 µg/mL
CCn1nc(Cc2n[nH]c(=S)o2)nc1C | MIC |  |  |  | >400 µg/mL

2 of the rows above, restated:

smiles | measure | cells | read by | strain | value
O=c1[nH]cnc2c1ncn2C1C[C@H](CO)[C@@H](CO)C1 | EC50 | VERO |  |  | >100 µg/mL
COC(=O)[C@]1(C)CCC[C@]2(C)c3ccc4[nH]c(C(F)(F)F)nc4c3CCC12 | EC50 | VERO | plaque count |  | >4 µg/mL